This is an account of results in paper PMC3516549, “Influenza Human Monoclonal Antibody 1F1 Interacts with Three Major Antigenic Sites and Residues Mediating Human Receptor Specificity in H1N1 Viruses” (2012).

For this test, the target named is SC1918 HA (baculovirus-expressed, for crystallization) (influenza A virus A/South Carolina/1/18 (H1N1)) (UniProt Q9WFX3). Briefly: crystal structure.

The substance 1F1 Fab registered a stoichiometry N (Fabs per HA trimer) of 3.
